# Some of the results follow. Env chains of viruses from a treatment-interruption trial, translated from the printed DNA. IC50 / IC80 of two broadly neutralizing antibodies; lower = more sensitive virus; >50 µg/ml means not reached and <0.001 µg/ml is below the lowest dose. No active / inactive call.
# What was measured:
# [1] = target: antibody 10-1074; assay: neutralization IC50; higher = virus less sensitive to the antibody
# Experimental: (§1)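 Pseudovirus bearing the Env chain mixed with antibody, from 50 µg/ml in fivefold dilutions, on TZM-bl reporter cells, in duplicate.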
# [2] = target: antibody 3BNC117; assay: as above
# Experimental: as §1
# [3] = target: antibody 10-1074; assay: neutralization IC80; higher = virus less sensitive to the antibody
# Experimental: as §1
# [4] = target: antibody 3BNC117; assay: as above
# Experimental: as §1
Binder,neutralization IC50 [1] [µg/mL],neutralization IC50 [2] [µg/mL],neutralization IC80 [3] [µg/mL],neutralization IC80 [4] [µg/mL]
"HIV-1 Env, rebound clone, placebo arm (protein) MKVKGTRMNWQHLWRWGTLMLGLVIICKASNTNLWVTVYYGVPAWEDADTTLFCASDAKAYSTEKHNVWATHACVPTDPNPQEISLPNVTENFDMWKNNMVEQMHEDIISLWDESLKPCVKLTPLCVTLTCSDINITNSSNTTITNGNNSMVDPEEIKNCTFNMTTEIIDKKKKEFALFYKLDIVQINNGKDYRLINCNVSTIKQACPKVSFEPIPIHYCAPAGFAILKCKDKNFNGTGPCKNVSTVQCTHGIKPVVSTQLLLNGSLAEEDIVIRTKNITDNGNNIIVHLNESITINCTRPNNNTRKSIHLGQGQAFYATGAIIGDIRQAHCNVSGSQWINMIKRVAGKLKGVFSKNVTFNSSAGGDLEITTHSFNCGGEFFYCNTSNLFNSSILTSNNTNENITLPCKIRQIVRMWQTVGQAMYAPPIAGSIICTSNITGLILTRDGGSNETNGTDTFRPGGGNMKDNWRSELYKYKVVRIKPLGIAPTKARRRVVGREKRAIGVLGAALLGFLGTAGSTMGAASITLTVQVRQLLSGIVQQQSNLLRAIEAQQHLLQLTVWGIKQLQARVLAVERYLRDQQLLGIWGCSGKLICTTNVPWNASWSNKSYEEIWDNMTWIQWDREIDNYTQLIYSLIEESQNQQEKNEQDLLALDKWTSLWSWFDISNWLWYIRIFIIIVGGLIGLRIVFAVLSIVNRVRQGYSPLSLQTLLPHPPEADRPGEIEEGGGEQGRTRSIRLVNGFLALAWDDLRNLCLFLYHHLRDFILTAARTVETLGHRGWEILKYLGNLLCYWGQELKNSVITLLDTTAIAVGNWTDRFIELGQRVVRAVLHIPRRVRQGLERALL",0.01,0.178,0.024,0.462
"HIV-1 Env, rebound clone, placebo arm (protein) MKVKGTRMNWQHLWRWGTLMLGLVIICNASNTNLWVTVYYGVPAWEDADTTLFCASDAKAYSTEKHNVWATHACVPTDPNPQEISLPNVTENFDMWKNNMVEQMHEDIISLWDESLKPCVKLTPLCVTLTCSDINITNSSNTTTTNGNSMVDPEEIKNCTFNMTTEIIDKKKQEYALFYKLDIVQINNGNDNKDYRLINCNVSTIKQACPKVSFEPIPIHYCAPAGFAILKCKDKNFNGTGPCKNVSTVQCTHGIKPVVSTQLLLNGSLAEEDIVIRTKNITDNGNNIIVHLNESITINCTRPNNNTRKSIHLGQGQAFYATGAIIGDIRQAHCNVSGSQWINMIKRVAGKLKGVFSKNVTFNSSAGGDLEITTHSFNCGGEFFYCNTSNLFNSSILTSNNTNENITLPCKIRQIVRMWQTVGQAMYAPPIAGSIICTSNITGLILTRDGGSNETNGTDTFRPGGGNMKDNWRSELYKYKVVKIKPLGIAPTKARRRVVGREKRAIGVLGAALLGFLGTAGSTMGAASITLTVQVRQLLSGIVQQQSNLLRAIEAQQHLLQLTVWGIKQLQARVLAVERYLRDQQLLGIWGCSGKLICTTNVPWNASWSNKSYEEIWDNMTWIQWDREIDNYTQLIYSLIEESQNQQEKNEQDLLALDKWTSLWSWFDISNWLWYIRIFIIIVGGLIGLRIVFAVLSIVNRVRQGYSPLSLQTLLPHPPEADRPGEIEEGGGEQGRTRSIRLVNGFLALAWDDLRNLCLFLYHHLRDFILTAARTVETLGHRGWEILKYLGNLLCYWGQELKNSVINLLDTTAIAVGNWTDRFIELGQRVVRAVLHIPRRIRQELERALL",0.006,0.188,0.013,0.813
"HIV-1 Env, rebound clone, placebo arm (protein) MKVKGTRMNWQHLWRWGTLMLGLVIICNASNTNLWVTVYYGVPAWEDADTTLFCASDAKAYSTEKHNVWATHACVPTDPNPQEISLPNVTENFDMWKNNMVEQMQEDIISLWDESLKPCVKLTPLCVTLTCSDINITNSSNTTTTNGNNSMVDPEEIKNCTFNMTTEIIDKKKKEYAFFYKLDIVQINNGNDSKDYRLINCNVSTIKQACPKVSFEPIPIHYCAPAGFAILKCKDKNFNGTGPCKNVSTVQCTHGIKPVVSTQLLLNGSLAEEDIVIRTKNITDNDNNIIVHLNESITINCTRPNNNTRKSIHLGQGQAFYATGAIIGDIRQAHCNVSGSQWINMIKRVAGKLKGVFSKNVTFNSSAGGDLEITTHSFNCGGEFFYCNTSNLFNSSILTSNNTNENITLPCKIRQIVRMWQTVGQAMYAPPIAGSIICTSNITGLILTRDGGSNETNGTDTFRPGGGNMKDNWRSELYKYKVVKIKPLGIAPTKARRRVVGREKRAIGVLGAALLGFLGTAGSTMGAASITLTVQVRQLLSGIVQQQSNLLRAIEAQQHLLQLTVWGIKQLQARVLAVERYLRDQQLLGIWGCSGKLICTTNVPWNASWSNKSYEEIWDNMTWIQWDREIDNYTQLIYSLIEESQNQQEKNEQDLLALDKWTSLWSWFDISNWLWYIRIFIIIVGGLIGLRIVFAVLSIVNRVRQGYSPLSLQTLLPHPPEADRPGEIEEGGGEQGRTRSIRLVNGFLALAWDDLRNLCLFLYHHLRDFILTAARTVETLGHRGWEILKYLGNLLCYWGQELKNSVVSLLDTTAIAVGNWTDRFIELGQRVVRAVLHIPRRVRQGLERALL",0.016,10.7,0.049,> 50
"HIV-1 Env, rebound clone, placebo arm (protein) MKVKGTRMNWQHLWRWGTLMLGLVIICKASNTNLWVTVYYGVPAWEDADTTLFCASDAKAYSTEKHNVWATHACVPTDPNPQEISLPNVTENFDMWKNNMVEQMHEDIISLWDESLKPCVKLTPLCVTLTCSDINITNSSNTTITNGNNSMVDPEEIKNCTFNMTTEIIDKKKKEFALFYKLDIVQINNGNDSKDYRLINCNVSTIKQACPKVSFEPIPIHYCAPAGFAILKCKDKNFNGTGPCKNVSTVQCTHGIKPVVSTQLLLNGSLAEEDIVIRTKNITDNGNNIIVHLNESITINCTRPNNNTRKSIHLGQGQAFYATGAIIGDIRQAHCNVSGSQWINMIKRVAGKLKGVFSKNVTFNSSAGGDLEITTHSFNCGGEFFYCNTSNLFNSSILTSNNTNENITLPCKIRQIVRMWQTVGQAMYAPPIAGSIICTSNITGLILTRDGGSNETNGTDTFRPGGGNMKDNWRSELYKYKVVKIKPLGIAPTKARRRVVGREKRAIGVLGAALLGFLGTAGSTMGAASITLTVQVRQLLSGIVQQQSNLLRAIEAQQHLLQLTVWGIKQLQARVLAVERYLRDQQLLGIWGCSGKLICTTNVPWNASWSNKSYEEIWDNMTWIQWDREIDNYTQLIYSLIEESQNQQEKNEQDLLALDKWTSLWSWFDISNWLWYIRIFIIIVGGLIGLRIVFAVLSIVNRVRQGYSPLSLQTLLPHPPEADRPGEIEEGGGEQGRTRSIRLVNGFLALAWDDLRNLCLFLYHHLRDFILTAARTVETLGHRGWEILKYLGNLLCYWGQELKNSVITLLDTTAIAVGNWTDRFIELGQRVVRAVLHIPRRVRQGLERALL",0.01,0.228,0.031,0.767
"HIV-1 Env, rebound clone, placebo arm (protein) MKVKGTRMNWQHLWRWGTLMLGLVIICKASNTNLWVTVYYGVPAWEDADTTLFCASDAKAYSTEKHNVWATHACVPTDPNPQEISLPNVTENFDMWKNNMVEQMHEDIISLWDESLKPCVKLTPLCVTLTCSDINITNSSNTTITNGNNSMVDPEEIKNCTFNMTTEIIDKKKKEFALFYKLDIVQINNGNDSKDYRLINCNVSTIKQACPKVSFEPIPIHYCAPAGFAILKCKDKNFNGTGPCKNVSTVQCTHGIKPVVSTQLLLNGSLAEEDIVIRTKNITDNGNNIIVHLNESITINCTRPNNNTRKSIHLGQGQAFYATGAIIGDIRQAHCNVSGSQWINMIKRVAGKLKGVFSKNVTFNSSAGGDLEITTHSFNCGGEFFYCNTSNLFNSSILTSNNTNENITLPCKIRQIVRMWQTVGQAMYAPPIAGSIICTSNITGLILTRDGGSNETNGTDTFRPGGGNMKDNWRSELYKYKVVRIKPLGIAPTKARRRVVGREKRAIGVLGAALLGFLGTAGSTMGAASITLTVQVRQLLSGIVQQQSNLLRAIEAQQHLLQLTVWGIKQLQARVLAVERYLRDQQLLGIWGCSGKLICTTNVPWNASWSNKSYEEIWDNMTWIQWDREIDNYTQLIYSLIEESQNQQEKNEQDLLALDKWTSLWSWFDISNWLWYIRIFIIIVGGLIGLRIVFAVLSIVNRVRQGYSPLSLQTLLPHPPEADRPGEIEEGGGEQGRTRSIRLVNGFLALAWDDLRNLCLFLYHHLRDFILTAARTVETLGHRGWEILKYLGNLLCYWGQELKNSVITLLDTTAIAVGNWTDRFIELGQRVVRAVLHIPRRVRQGLERALL",0.012,0.141,0.026,0.5
"HIV-1 Env, rebound clone, placebo arm (protein) MKVKGTRMNWQHLWRWGTLMLGLVIICKASNTNLWVTVYYGVPAWEDADTTLFCASDAKAYSTEKHNVWATHACVPTDPNPQEISLPNVTENFDMWKNNMVEQMHEDIISLWDESLKPCVKLTPLCVTLTCSNTTITNGNNSMVDPEEIKNCTFNMTTEIIDKKKKEFALFYKLDIVQINNGNDSKDYRLINCNVSTIKQACPKVSFEPIPIHYCAPAGFAILKCKDKNFNGTGPCKNVSTVQCTHGIKPVVSTQLLLNGSLAEEDIVIRTKNITDNGNNIIVHLNESITINCTRPNNNTRKSIHLGQGQAFYATGAIIGDIRQAHCNVSGSQWINMIKRVAGKLKGVFSKNVTFNSSAGGDLEITTHSFNCGGEFFYCNTSNLFNSSILTSNNTNENITLPCKIRQIVRMWQTVGQAMYAPPIAGSIICTSNITGLILTRDGGSNETNGTDTFRPGGGNMKDNWRSELYKYKVVRIKPLGIAPTKARRRVVGREKRAIGVLGAALLGFLGTAGSTMGAASITLTVQVRQLLSGIVQQQSNLLRAIEAQQHLLQLTVWGIKQLQARVLAVERYLRDQQLLGIWGCSGKLICTTNVPWNASWSNKSYEEIWDNMTWIQWDREIDNYTQLIYSLIEESQNQQEKNEQDLLALDKWTSLWSWFDISNWLWYIRIFIIIVGGLIGLRIVFAVLSIVNRVRQGYSPLSLQTLLPHPPEADRPGEIEEGGGEQGRTRSIRLVNGFLALAWDDLRNLCLFLYHHLRDFILTAARTVETLGHRGWEILKYLGNLLCYWGQELKNSVITLLDTTAIAVGNWTDRFIELGQRVVRAVLHIPRRVRQGLERALL",0.006,0.163,0.013,0.771

# — the supplement of paper PMC12637763
